For this series, the system named is DENV-2 NGC. Put plainly: Antiviral activity against DENV-2 NGC in Vero-B cells (viral RNA load by RT-qPCR). The conditions noted are these: DENV-2 in Vero-B cells (Table 3); ratio CC50 / EC50. It counts as cell-based, Dengue virus. (Real-time PCR tracks product formation cycle by cycle.)
With `COc1cncc(NC(C(=O)c2c[nH]c3ccccc23)c2ccccc2)c1` (single isomer, unassigned) [CPD-299], the SI is recorded as 3136.

For the compound `COc1cncc(NC(C(=O)c2c[nH]c3ccccc23)c2ccccc2)c1` (single isomer, unassigned) [CPD-300], the SI came out at 39.

With `COc1cncc(NC(C(=O)c2c[nH]c3ccc(F)cc23)c2ccc(OC)nc2)c1` (single isomer, unassigned) [CPD-322], the SI is on record as 2855.

Consider `COc1cncc(NC(C(=O)c2c[nH]c3ccc(F)cc23)c2ccc(OC)nc2)c1` (single isomer, unassigned) [CPD-323], for which the SI was determined as 166.

Regarding `COc1cccc(NC(C(=O)c2c[nH]c3ccccc23)c2cc3ccccn3n2)c1` (single isomer, unassigned) [CPD-324], the SI is recorded as 3306.

With `COc1cccc(NC(C(=O)c2c[nH]c3ccccc23)c2cc3ccccn3n2)c1` (single isomer, unassigned) [CPD-325], the SI was found to be 731.

For the compound `COc1cc(NC(C(=O)c2c[nH]c3ccccc23)c2ccccc2)cc(OC)c1` (single isomer, unassigned) [CPD-326], the SI came to 9127.

Regarding `COc1cc(NC(C(=O)c2c[nH]c3ccccc23)c2ccccc2)cc(OC)c1` (single isomer, unassigned) [CPD-327], the SI is reported as 33.

On to `CCOc1cccc(NC(C(=O)c2c[nH]c3ccccc23)c2ccccc2)c1` (centres unmarked) [CPD-003], for which the SI was found to be 114.

With `COc1cc(NC(C(=O)c2c[nH]c3ccccc23)c2ccccc2)ccc1Cl` (centres unmarked) [CPD-004], the SI is 57.

As for `O=C(c1c[nH]c2ccccc12)C(Nc1cccc(OC(F)(F)F)c1)c1ccccc1` (centres unmarked) [CPD-005], the SI came to 6.

Regarding `O=C(c1c[nH]c2ccccc12)C(Nc1cccc(Cl)c1)c1ccccc1` (centres unmarked) [CPD-006], the SI was 8.

Regarding `O=C(c1c[nH]c2ccccc12)C(Nc1ccc(F)c(F)c1)c1ccccc1` (centres unmarked) [CPD-007], the SI is given as 2.

Regarding `O=C(c1c[nH]c2ccccc12)C(Nc1cccc(F)c1)c1ccccc1` (centres unmarked) [CPD-008], the SI is recorded as 5.

For `O=C(c1c[nH]c2ccccc12)C(Nc1cccc(C(F)(F)F)c1)c1ccccc1` (centres unmarked) [CPD-009], the SI came out at 7.

For the compound `O=C(c1c[nH]c2ccccc12)C(Nc1cc(F)cc(F)c1)c1ccccc1` (centres unmarked) [CPD-011], the SI was 14.

Take `COc1cc(NC(C(=O)c2c[nH]c3ccccc23)c2ccccc2)cc(C(F)(F)F)c1` (centres unmarked) [CPD-014]: the SI is recorded as 354.

For `COc1cc(F)cc(NC(C(=O)c2c[nH]c3ccccc23)c2ccccc2)c1` (centres unmarked) [CPD-015], the SI amounted to 1065.

As for `O=C(c1c[nH]c2ccccc12)C(Nc1cccnc1)c1ccccc1` (centres unmarked) [CPD-016], the SI is given as 11.

In the case of `COc1cccc(N(C)C(C(=O)c2c[nH]c3ccccc23)c2ccccc2)c1` (centres unmarked) [CPD-018], the SI was determined as 52.

Consider `COc1cccc(NC(C(=O)c2c[nH]c3ccccc23)c2ccncc2)c1` (centres unmarked) [CPD-020], for which the SI worked out at 114.

Consider `COc1cccc(NC(C(=O)c2c[nH]c3ccccc23)c2ccc(S(C)(=O)=O)cc2)c1` (centres unmarked) [CPD-021], for which the SI is listed as above 70.

Take `Cc1cc(NC(C(=O)c2c[nH]c3ccccc23)c2ccccc2)no1` (centres unmarked) [CPD-022]: the SI came to 6.

Take `COc1cccc(NC(C(=O)c2c[nH]c3ccccc23)c2ccco2)c1` (centres unmarked) [CPD-023]: the SI amounted to 53.

`COc1cccc(NC(C(=O)c2c[nH]c3ccccc23)c2cccs2)c1` (centres unmarked) [CPD-024]: the SI is on record as 27.

Take `COc1cccc(NC(C(=O)c2c[nH]c3ccccc23)c2cc(C)on2)c1` (centres unmarked) [CPD-025]: the SI was 69.

As for `COc1cccc(NC(C(=O)c2c[nH]c3ccccc23)c2nccn2C)c1` (centres unmarked) [CPD-026], the SI is reported as above 8.

Regarding `COc1cccc(NC(C(=O)c2c[nH]c3ccccc23)c2ccsc2)c1` (centres unmarked) [CPD-027], the SI came to 111.

On to `COc1cccc(NC(C(=O)c2c[nH]c3ccccc23)c2ncc[nH]2)c1` (centres unmarked) [CPD-028], for which the SI is above 1.

Consider `COc1cccc(NC(C(=O)c2c[nH]c3ccccc23)c2cncnc2)c1` (centres unmarked) [CPD-029], for which the SI was determined as 78.

Take `COc1cccc(NC(C(=O)c2c[nH]c3ccccc23)c2cn3ccccc3n2)c1` (centres unmarked) [CPD-030]: the SI is recorded as above 1412.

Take `O=C(c1c[nH]c2ccccc12)C(Nc1ccnc(O)c1)c1ccccc1` (centres unmarked) [CPD-031]: the SI is above 2.

On to `O=C(c1c[nH]c2ccccc12)C(NCc1ccccn1)c1ccccc1` (centres unmarked) [CPD-032], for which the SI was above 2.

As for `O=C(c1c[nH]c2ccccc12)C(NCc1cccs1)c1ccccc1` (centres unmarked) [CPD-033], the SI worked out at 8.

Regarding `O=C(c1c[nH]c2ccccc12)C(NCc1ccco1)c1ccccc1` (centres unmarked) [CPD-034], the SI is reported as above 3.

Regarding `N#Cc1cccc(NC(C(=O)c2c[nH]c3ccccc23)c2ccccc2)c1` (centres unmarked) [CPD-035], the SI was 7.

As for `COc1cccc(NC(C(=O)c2c[nH]c3ccccc23)c2ccc(C#N)cc2)c1` (centres unmarked) [CPD-036], the SI is 333.

For `COc1cccc(NC(C(=O)c2c[nH]c3ccccc23)c2ccc3nccnc3c2)c1` (centres unmarked) [CPD-037], the SI is 16.

In the case of `COc1ccc(OC)c(NC(C(=O)c2c[nH]c3ccccc23)c2ccccc2)c1` (centres unmarked) [CPD-039], the SI is on record as 6.

Regarding `COc1cccc(NC(C(=O)c2c[nH]c3ccccc23)c2ccccc2)c1OC` (centres unmarked) [CPD-040], the SI is reported as above 30.

As for `COc1cccc(NC(C(=O)c2c[nH]c3ccccc23)c2cccc(C#N)c2)c1` (centres unmarked) [CPD-041], the SI is 29.

As for `COc1cccc(NC(C(=O)c2c[nH]c3ccccc23)c2cnn(C)c2)c1` (centres unmarked) [CPD-042], the SI is given as above 11.

For `COc1cccc(NC(C(=O)c2c[nH]c3ccccc23)c2cccc3ccnn23)c1` (centres unmarked) [CPD-043], the SI was above 440.

With `CS(=O)(=O)c1cccc(NC(C(=O)c2c[nH]c3ccccc23)c2ccccc2)c1` (centres unmarked) [CPD-044], the SI was 10.

For the compound `COc1cc(NC(C(=O)c2c[nH]c3ccccc23)c2ccccc2)ccn1` (centres unmarked) [CPD-045], the SI was above 2183.

`CCc1cccc(NC(C(=O)c2c[nH]c3ccccc23)c2ccccc2)c1` (centres unmarked) [CPD-046]: the SI is reported as 26.

In the case of `COc1cccc(NC(C(=O)c2c[nH]c3ccccc23)c2cccc3cnccc23)c1` (centres unmarked) [CPD-047], the SI came out at 39.

`COc1cccc(NC(C(=O)c2c[nH]c3ccccc23)c2ccc(-c3cncnc3)cc2)c1` (centres unmarked) [CPD-048]: the SI was above 54.

As for `COc1cccc(NC(C(=O)c2cn(C)c3ccccc23)c2ccccc2)c1` (centres unmarked) [CPD-049], the SI is above 1642.

As for `O=C(c1c[nH]c2ccccc12)C(Nc1ccc2nccnc2c1)c1ccccc1` (centres unmarked) [CPD-050], the SI is 36.

As to `CN(C)C(=O)c1cccc(NC(C(=O)c2c[nH]c3ccccc23)c2ccccc2)c1` (centres unmarked) [CPD-051], the SI is recorded as above 51.

`CNS(=O)(=O)c1cccc(NC(C(=O)c2c[nH]c3ccccc23)c2ccccc2)c1` (centres unmarked) [CPD-052]: the SI came to 14.

Take `COc1cccc(NC(C(=O)c2c[nH]c3cccc(Cl)c23)c2ccccc2)c1` (centres unmarked) [CPD-053]: the SI is recorded as 774.

In the case of `COc1cccc(NC(C(=O)c2c[nH]c3ccccc23)c2cccc(-c3cncnc3)c2)c1` (centres unmarked) [CPD-054], the SI is on record as above 54.

`COc1cccc(NC(C(=O)c2c[nH]c3ccccc23)c2ccc(OC)nc2)c1` (centres unmarked) [CPD-055]: the SI is 759.

Take `COc1cccc(NC(C(=O)N2CCc3ccccc32)c2ccccc2)c1` (centres unmarked) [CPD-056]: the SI is recorded as above 312.
